Results reported in publication PMC3145792, “Structural Basis of Chemokine Sequestration by CrmD, a Poxvirus-Encoded Tumor Necrosis Factor Receptor” (2011).
Several values for one entry are separate records, joined by “and”; a condition that tells them apart may be missing. Equal values may be shown once.

Target: SECRET domain (smallpox virus-encoded chemokine receptor domain) of the vTNFR CrmD encoded by ectrom (ectromelia virus)
Test: SPR

## chemokine domain of human CX3CL1 (residues 1-76) (from UniProt P78423 25-100) (domain or fragment)
  Kd: 421 nM and 937 nM and 680 nM
